The nature of assay [1]: Control sensor (same formulation, no AChR added) impedance response to agent challenge. The note with it: 50 to 100 uL.
Assay [2] deals with immobilized acetylcholine receptor (AChR). Put plainly: AChR sensor alternating current impedance response to agent challenge. In kind it is binding, Electrophorus electricus. The note with it: for AChR sensor response: 50 to 100 uL.

Experimental findings from US5001048A (priority 1987, dated 1991) are described below.

As for alpha-bungarotoxin, the values for the Control sensor response in assay [1] (agent 5 ug/ml), in assay [1] (agent 50 ug/ml) and in assay [1] (agent 500 ug/ml) were 42 K.OMEGA, 23 K.OMEGA and 13 K.OMEGA, respectively. The entries for the “% Change of AChR sensor with respect to control” value in assay [2] (agent 5 ug/ml), in assay [2] (agent 50 ug/ml) and in assay [2] (agent 500 ug/ml) were 0%, 48% and 108%, respectively. In addition, the AChR sensor response worked out at 42 K.OMEGA in assay [2] (agent 5 ug/ml), 34 K.OMEGA in assay [2] (agent 50 ug/ml) and 27 K.OMEGA in assay [2] (agent 500 ug/ml).
